Molecular target: Unchecked (Burkholderia pseudomallei K96243, UniProt Q63Y17)
Test: Inhibition of Burkholderia pseudomallei recombinant His-tagged carbonic anhydrase beta (256 residues) expressed in Escherichia coli BL21 (DE3) incubated for 15 mins prior to testing by stopped flow CO2 hydration method

| Compound | Ki [µM] |
| --- | --- |
| O=[As](O)(O)c1ccccc1 | 92 |
| NS(N)(=O)=O | 89 |
| NS(=O)(=O)O | 83 |

— ChEMBL document CHEMBL3994664, “Comparison of the anion inhibition profiles of the β- and γ-carbonic anhydrases from the pathogenic bacterium Burkholderia pseudomallei” (2017)
